From ChEMBL document CHEMBL1154785, “Identification of critical ligand binding determinants in Mycobacterium tuberculosis adenosine-5'-phosphosulfate reductase” (J Med Chem, 2009)

Test: Binding affinity to Mycobacterium tuberculosis adenosine-5'-phosphosulfate reductase assessed as S-sulfocysteine formation at pH 5.5 by single turnover method in absence of thioredoxin

With Nc1ncnc2c1ncn2[C@@H]1O[C@H](COP(=O)(O)OP(=O)(O)F)[C@@H](O)[C@H]1O the Kd was 2500 nM.
